Pooled drug test results. Numbers come from NIAID ChemDB, via PubChem.

Common to all: whole-cell or culture tests; species: Mycobacterium avium intracellulare; endpoint: MIC

Two numbers with a dash give a range or band. Conditions beyond the fields shown may differ between rows. Blank or dashed fields: not listed here.

compound	strain	value
OCCN1CCN(CCC=C2c3ccccc3Sc3ccc(Cl)cc32)CC1	T 7360	12.5 µg/mL
CN(C)C/C=C(\c1ccc(Cl)cc1)c1ccc(-c2ccc(Br)cc2)cc1		18.7 µg/mL
CCCCCCS/C(N)=N/N=C/c1ccc2ccccc2n1	CNCTC D38/92	63 µM
COc1cc(NC(C)CCCN)c2nc(C(C)(C)C)ccc2c1Oc1cccc(C(F)(F)F)c1		5 µg/mL
CO[C@H]1/C=C/O[C@@]2(C)Oc3c(C)c(=O)c4c(O)c(c5oc6cc(N7CCCC(C)C7)ccc6nc5c4c3C2=O)NC(=O)/C(C)=C\C=C\[C@H](C)[C@H](O)[C@@H](C)[C@@H](O)[C@@H](C)[C@H](OC(C)=O)[C@@H]1C	Shibazaki	1.25 µg/mL
O=C1C(=S)N(Cc2ccccc2)c2ccccc21	CNCTC D39/93	125 µM
CO[C@H]1/C=C/O[C@@]2(C)Oc3c(C)c(=O)c4c(O)c(c5oc6cc(N7CCCC7)ccc6nc5c4c3C2=O)NC(=O)/C(C)=C\C=C\[C@H](C)[C@H](O)[C@@H](C)[C@@H](O)[C@@H](C)[C@H](OC(C)=O)[C@@H]1C	Shibazaki	1.25 µg/mL
O=C(c1ccncc1)N(/N=C/c1cccc([N+](=O)[O-])c1)C(=O)c1cnccn1	ATCC 13950	>16 µg/mL
CC(=O)Oc1ccccc1C(=O)Nc1ncc([N+](=O)[O-])s1		2 µg/mL
CC[C@H]1OC(=O)[C@H](C)[C@@H](OC2C[C@@](C)(OC)[C@@H](O)[C@H](C)O2)[C@H](C)[C@@H](O[C@@H]2O[C@H](C)C[C@H](N(C)C)[C@H]2O)C(C)(O)C[C@@H](C)/C(=N\OCCOc2ccccc2)[C@H](C)[C@@H](O)[C@]1(C)O	20066	3.13 µg/mL
CC1COc2c(N3CCN(C)CC3)c(F)cc3c(=O)c(C(=O)O)cn1c23		25 µg/mL
O=C(NC1=NS(=O)(=O)c2ccccc2N1c1ccccc1)c1ccc(Cl)nc1	ATCC 13950	>16 µg/mL
CN(C)CC=C(c1ccc(Br)cc1)c1ccc(-c2ccc(Br)cc2)cc1		68 µg/mL
CO[C@H]1/C=C/O[C@@]2(C)Oc3c(C)c(O)c4c(O)c(c5c(c4c3C2=O)NC2(CCN(CC(C)C)CC2)N=5)=NC(=O)/C(C)=C\C=C\[C@H](C)[C@H](O)[C@@H](C)[C@@H](O)[C@@H](C)[C@H](OC(C)=O)[C@@H]1C	SKV	0.062 µg/mL
CCS/C(N)=N/N=C/c1nc2ccccc2n1C	CNCTC D38/92	125 µM
CC(=O)NC[C@H]1CN(c2ccc(N3CCN(c4ccc([N+](=O)[O-])s4)CC3)c(F)c2)C(=O)O1	540/96	1 µg/mL
CN1C(=S)C(=O)c2ccccc21	CNCTC D38/92	32 µM
O=C(c1ccncc1)N(/N=C/c1ccccc1Cl)C(=O)c1cnccn1	ATCC 13950	>16 µg/mL
CCCCCCCCCCO/N=C1\[C@H](C)CC(C)(O)[C@H](O[C@@H]2O[C@H](C)C[C@H](N(C)C)[C@H]2O)[C@@H](C)[C@H](OC2C[C@@](C)(OC)[C@@H](O)[C@H](C)O2)[C@@H](C)C(=O)O[C@H](CC)[C@@](C)(O)[C@H](O)[C@H]1C	20066	6.25 µg/mL
CCNC(=O)[C@@H](NC(=O)Cc1ccccc1)[C@@H]1N[C@@H](C(=O)NCCNC(=O)[C@@H]2N[C@@H]([C@H](NC(=O)Cc3ccccc3)C(=O)NCC)SC2(C)C)C(C)(C)S1	CIPT 140310030	50 µg/mL
CC[C@H]1OC(=O)[C@H](C)[C@@H](O[C@H]2C[C@@](C)(OC)[C@@H](O)[C@H](C)O2)[C@H](C)[C@@H](O[C@@H]2O[C@H](C)C[C@H](N(C)C)[C@H]2O)[C@](C)(OC)C[C@@H](C)C(=O)[C@H](C)[C@@H](O)[C@]1(C)O	N-260	6.25 µg/mL
CC[C@H]1OC(=O)[C@H](C)[C@@H](OC2C[C@@](C)(OC)[C@@H](O)[C@H](C)O2)[C@H](C)[C@@H](O[C@@H]2O[C@H](C)C[C@H](N(C)C)[C@H]2O)C(C)(O)C[C@@H](C)/C(=N\OCCCCOc2ccccc2)[C@H](C)[C@@H](O)[C@]1(C)O	20066	3.13 µg/mL
O=C(NNC1=NS(=O)(=O)c2ccccc2N1c1ccccc1)c1ccncc1	ATCC 13950	>16 µg/mL
CC(C)N=c1cc2n(-c3ccc(Cl)cc3)c3ccccc3nc-2cc1Nc1ccc(Cl)cc1	TB60	1 µg/mL
NNC(=O)c1ccncc1	N-846 (HIV-)	4 µg/mL
CCS/C(N)=N/N=C/c1nc2ccccc2o1	CNCT D39/93	125 µM
CN1C(NNC(=O)c2cnccn2)=NS(=O)(=O)c2ccccc21	ATCC 13950	2 µg/mL
CCS/C(N)=N/N=C/c1ccc2cc(Cl)ccc2n1	CNCT D39/93	32 µM
COc1cc2ccnc3c2c(c1OC(=O)c1ccc(F)cc1)N(C)C=C3		10 µg/mL
COc1cc(O)c2c(c1CC=C(C)C)O[C@H](c1c(CC=C(C)C)cc(OC)c(OC)c1CC=C(C)C)[C@@H](O)C2=O	ATCC 23068	>100 µg/mL
C[C@@H]1CN(c2c(F)c(N)c3c(=O)c(C(=O)O)cn(C4CC4)c3c2F)C[C@H](C)N1	3 isolates	0.1–0.3 µg/mL
CC[C@@H](C)[C@H](O)[C@H](C)[C@@H](C/C=C/C=C/C(N)=O)OC(=O)/C=C/c1ccccc1		>100 µg/mL
C/C=C(\C)C(=O)Oc1ccc([C@H]2O[C@@H]2C)cc1		5.39 µg/mL
CN(C)CCCN1c2ccccc2Sc2ccc(Cl)cc21	R 8656	50 µg/mL
CCn1c(S)c(N=NC(N)=[NH2+])c2ccccc21	CNCTC D38/92	250 µM
CCN1C(NNC(=O)c2ccncc2)=NS(=O)(=O)c2ccccc21	ATCC 13950	>16 µg/mL
C=CCc1ccc(OC(=O)/C(C)=C/C)cc1	ATCC 19709	10 µg/mL
CN(C)C/C=C(/c1ccc(-c2ccc(Br)cc2)cc1)c1ccc([N+](=O)[O-])cc1		73 µg/mL
CN1C(NC(=O)c2cnccn2)=NS(=O)(=O)c2cc(Cl)ccc21	ATCC 13950	>16 µg/mL
CC[C@H]1OC(=O)[C@H](C)[C@@H](O[C@H]2C[C@@](C)(OC)[C@@H](O)[C@H](C)O2)[C@H](C)[C@@H](O[C@@H]2O[C@H](C)C[C@H](N(C)C)[C@H]2O)[C@](C)(O)C[C@@H](C)/C(=N\OC)[C@H](C)[C@@H](O)[C@]1(C)O	20066	12.5 µg/mL
COc1ccc(/C=N/N(C(=O)c2ccncc2)C(=O)c2cnccn2)c(O)c1	ATCC 13950	>16 µg/mL
CCCCCCCCCCCCCCO/N=C1\[C@H](C)CC(C)(O)[C@H](O[C@@H]2O[C@H](C)C[C@H](N(C)C)[C@H]2O)[C@@H](C)[C@H](OC2C[C@@](C)(OC)[C@@H](O)[C@H](C)O2)[C@@H](C)C(=O)O[C@H](CC)[C@@](C)(O)[C@H](O)[C@H]1C	20066	>50 µg/mL
CC1(C)S[C@@H]2[C@H](NC(=O)C(C(=O)O)c3ccccc3)C(=O)N2[C@H]1C(=O)O	CIPT 140310001	25 µg/mL
NC(=S)c1cnccn1	ATCC 13950	100 µg/mL
CC[C@H]1OC(=O)[C@H](C)[C@@H](O[C@H]2C[C@@](C)(OC)[C@@H](O)[C@H](C)O2)[C@H](C)[C@@H](O[C@@H]2O[C@H](C)C[C@H](N(C)C)[C@H]2O)[C@](C)(OC)C[C@@H](C)C(=O)[C@H](C)[C@@H](O)[C@]1(C)O	N-846 (HIV-)	1 µg/mL
CCc1ccc(C(=O)Oc2c(OC)cc3ccnc4c3c2N(C)C=C4)cc1		2.5 µg/mL
OCCN1CCN(CC/C=C2\c3ccccc3Sc3ccc(Cl)cc32)CC1	ATCC 23432	12.5 µg/mL
O=C(NNC1=NS(=O)(=O)c2ccccc2N1c1ccccc1)c1cnccn1	ATCC 13950	>16 µg/mL
CCC(C)S/C(N)=N/N=C/c1ccncc1	CNCTC D38/92	250 µM
Cc1ccc(/C(=C\CN(C)C)c2ccc(-c3ccc(Br)cc3)cc2)cc1		79 µg/mL
CCCCCCCCOC(=O)c1cnccn1	ATCC 13950	200 µg/mL
O=C(c1ccncc1)N(/N=C/c1ccc(Cl)cc1Cl)C(=O)c1cnccn1	ATCC 13950	>16 µg/mL
CO[C@H]1/C=C/O[C@@]2(C)Oc3c(C)c(O)c4c(O)c(c5c(c4c3C2=O)NC2(CCN(CC(C)C)CC2)N=5)=NC(=O)/C(C)=C\C=C\[C@H](C)[C@H](O)[C@@H](C)[C@@H](O)[C@@H](C)[C@H](OC(C)=O)[C@@H]1C	N-897 (HIV-)	0.1 µg/mL
CC1(C)S[C@@H]2[C@H](NC(=O)[C@H](C(=O)[O-])c3ccsc3)C(=O)N2[C@H]1C(=O)[O-].[Na+].[Na+]	CIPT 140310001	35 µg/mL
COc1cc(C(=N)N)ccc1OC/C=C\COc1ccc(C(=N)N)cc1OC	ATCC 23068	50 µg/mL
CC[C@H]1OC(=O)[C@H](C)[C@@H](OC2C[C@@](C)(OC)[C@@H](O)[C@H](C)O2)[C@H](C)[C@@H](O[C@@H]2O[C@H](C)C[C@H](N(C)C)[C@H]2O)C(C)(O)C[C@@H](C)/C(=N\OCCN(C)c2ccccc2)[C@H](C)[C@@H](O)[C@]1(C)O	20066	1.56 µg/mL
Cc1c(C)c(C)[c-](C)c1C.N[C@H](C(=O)[O-])c1ccccc1.[Cl][Rh+2]	1406T	15 µg/mL
CN1C(NNC(=O)c2ccncc2)=NS(=O)(=O)c2ccccc21	ATCC 13950	>16 µg/mL
COc1cc2ccnc3c2c(c1OC(=O)c1ccccc1C)N(C)C=C3		10 µg/mL
CN1C(NC(=O)c2ccc(Cl)nc2)=NS(=O)(=O)c2cc(Cl)ccc21	ATCC 13950	>16 µg/mL
CCS/C(N)=N/N=C/c1ccc2ccccc2n1	CNCT D39/93	>1000 µM

6 of the rows above, restated:

compound | strain | value
CO[C@H]1/C=C/O[C@@]2(C)Oc3c(C)c(O)c4c(O)c(c5c(c4c3C2=O)NC2(CCN(CC(C)C)CC2)N=5)=NC(=O)/C(C)=C\C=C\[C@H](C)[C@H](O)[C@@H](C)[C@@H](O)[C@@H](C)[C@H](OC(C)=O)[C@@H]1C | SKV | 0.062 µg/mL
CCc1ccc(C(=O)Oc2c(OC)cc3ccnc4c3c2N(C)C=C4)cc1 |  | 2.5 µg/mL
CCS/C(N)=N/N=C/c1nc2ccccc2n1C | CNCTC D38/92 | 125 µM
CN(C)CC=C(c1ccc(Br)cc1)c1ccc(-c2ccc(Br)cc2)cc1 |  | 68 µg/mL
O=C(c1ccncc1)N(/N=C/c1ccccc1Cl)C(=O)c1cnccn1 | ATCC 13950 | >16 µg/mL
CC[C@H]1OC(=O)[C@H](C)[C@@H](OC2C[C@@](C)(OC)[C@@H](O)[C@H](C)O2)[C@H](C)[C@@H](O[C@@H]2O[C@H](C)C[C@H](N(C)C)[C@H]2O)C(C)(O)C[C@@H](C)/C(=N\OCCOc2ccccc2)[C@H](C)[C@@H](O)[C@]1(C)O | 20066 | 3.13 µg/mL